Measured values from several laboratories, pooled; numbers as filed in NIAID ChemDB.

Shared fields: growth or infection tests; agent: Human cytomegalovirus; method: plaque count; measure: EC50

An empty or dashed field is not shown. Conditions beyond the fields shown may differ between rows. ECn: concentration that inhibits the pathogen or its effect by n%.

smiles	cell line	strain or isolate	result
COc1cccc(N2CCN(C3=Nc4c(F)cccc4[C@H](CC(=O)O)N3c3cc(C(F)(F)F)ccc3OC)CC2)c1		rGCV-1	0.0039 µM
Cn1cc(C(=O)NCc2ccc(Cl)cc2)c(=O)c2cc(CN3CCOCC3)ccc21	HFF	EC	4.7 µM
C[C@@H]1O[C@@H](n2c(Cl)nc3cc(Cl)c(Cl)cc32)[C@H](O)[C@@H]1O	HFF	TOWNE	0.66 µM
O=C(NCc1ccc(Cl)cc1)c1cn2c3c(cc(CN4CCOCC4)cc3c1=O)OC(c1cccnc1)C2	HFF	C8805/37-1-1 (ganciclovir-resistant)	3.9 µM
OC[C@H]1O[C@@H](n2c(Br)nc3cc(Cl)c(Cl)cc32)[C@H](O)[C@@H]1O	HFF	D10 (BDCRB-resistant)	20.3 µM
OC[C@H]1O[C@@H](n2c(Br)nc3cc(Cl)c(Cl)cc32)[C@H](O)[C@@H]1O		Recombinant C4 (D341E)	32 µM
Nc1nc2c(ncn2C[C@@H]2CC[C@@H](P(=O)(O)O)O2)c(=O)[nH]1	MRC-5	P8 ganciclovir-sensitive	0.2 µg/mL
O=C(NCc1ccc(Cl)cc1)c1c[nH]c2c(F)cccc2c1=O		NEW	7.2 µM
Nc1nc2c(ncn2COC(CO)CO)c(=O)[nH]1		17517 (GCV-susceptible)	3.2 µM
O[C@@H]1[C@H](O)[C@H](O)CO[C@H]1n1c(Br)nc2cc(Cl)c(Cl)cc21	HFF	759RD100 (drug-resistant)	2.1 µM
Nc1nc2c(ncn2COC(CO)CO)c(=O)[nH]1	MRC-5	D16 (ganciclovir-resistant)	28 µg/mL
Nc1ccn(C[C@@H](CO)OCP(=O)(O)O)c(=O)n1	HEL	Ganciclovir-resistant	3.9 µM
CCCCCCCC/C=C\CCCCCCCOCCCOP(=O)(O)CO[C@H](CO)Cn1ccc(N)nc1=O	HFF	1117-R	0.005 µM
Nc1nc2c(ncn2COC(CO)CO)c(=O)[nH]1	MRC-5	C8501	1 µM
CCCCCCCCCCCCCCCCCCOCCOP(=O)(O)CO[C@H](CO)Cn1ccc(N)nc1=O	MRC-5	Toledo	0.025 µM
COC(=O)[C@H](C)NP(=O)(OC[C@H]1C/C1=C/n1cnc2c(=O)[nH]c(N)nc21)Oc1ccccc1	HFF	AD169	25 µM
Nc1nc2c(ncn2COC(CO)CO)c(=O)[nH]1		P8 (DHPG-S)	3.2 µM
Nc1nc2c(ncn2COC(CO)CO)c(=O)[nH]1		RCdelta97.19	19.6 µM
Nc1nc2c(ncn2C=C2CC2CO)c(=O)[nH]1	HFF	DAVIS	2.5 µM
Nc1nc2c(ncn2COC(CO)CO)c(=O)[nH]1	HFF	C4 (BDCRB-resistant)	2.8 µM
OC[C@H]1O[C@@H](n2c(Br)nc3cc(Cl)c(Cl)cc32)[C@H](O)[C@@H]1O	HFF	EC	1 µM
OC[C@H]1O[C@@H](n2c(Cl)nc3cc(Cl)c(Cl)cc32)[C@H](O)[C@@H]1O	HFF	TOWNE	2.8 µM
CNc1cccc2c(S(=O)(=O)Nc3ccc(NC(=O)C(C)(C)CO)cc3)cccc12		Ganciclovir-resistant	12.5 µM
Nc1nc2c(ncn2COC(CO)CO)c(=O)[nH]1	HFF	TW-087	1.5 µM
CCCCCCCCCCCCCCCCCCOC[C@H](COP(=O)(O)CO[C@H](CO)Cn1ccc(N)nc1=O)OCc1ccccc1	HFF	TOWNE	0.003 µM
CC(C)Nc1nc2cc(Cl)c(Cl)cc2n1[C@H]1O[C@@H](CO)[C@H](O)[C@@H]1O	MRC-5	C8910	0.19 µM
CCCCCCCCCCCCOCCCOP(=O)(O)CO[C@H](CO)Cn1ccc(N)nc1=O	HFF	AD169	0.01 µM
Nc1nc2c(ncn2COC(CO)CO)c(=O)[nH]1	HFF	EC	9.7 µM
OC[C@H]1O[C@@H](n2c(Br)nc3cc(Cl)c(Cl)cc32)[C@H](O)[C@@H]1O		1117 3-1-2 (CDV-resistant)	0.53 µM
CCCCCCCC/C=C\CCCCCCCCOCCOP(=O)(O)CO[C@H](CO)Cn1ccc(N)nc1=O	HFF	AD169	0.001 µM
Nc1nc(NC2CC2)c2ncn(C=C3CC3CO)c2n1	HFF	C8914-6	4.4 µM
O[C@@H]1[C@H](O)[C@H](O)CO[C@H]1n1c(Br)nc2cc(Cl)c(Cl)cc21	MRC-5	GDGP53 (A987G)	1.3 µM
O[C@@H]1[C@H](O)CO[C@H]1n1c(Cl)nc2cc(Cl)c(Cl)cc21	HFF	D10 (BDCRB- and maribavir-resistant)	4.6 µM
Nc1ccn(C[C@@H](CO)OCP(=O)(O)O)c(=O)n1	MRC-5	C9209/1-4-4 drug-resistant mutant	2.3 µM
CN(C)c1cccc2c(S(=O)(=O)Nc3ccc(NC(=O)C(C)(C)CO)cc3)cccc12		ULM B3 (ganciclovir-resistant)	1.48 µM
CCCCCCCCCCCCCCCCCCOCCOP1(=O)CO[C@@H](Cn2ccc(N)nc2=O)CO1	MRC-5	C9208/3-3-1	0.001 µM
Cn1cc(C(=O)NCc2ccc(Cl)cc2)c(=O)c2cc(CN3CCOCC3)ccc21	HFF	SC	1.1 µM
CCCCCCCCCCCCCCCCOP(=O)(O)CO[C@H](CO)Cn1ccc(N)nc1=O	HFF	VR4955 (foscarnet-resistant)	0.01 µM
NC(=O)c1c(Cl)c(-c2cccnc2)n2c1CCCC2	HEL	Cidofovir-resistant	0.13 µM

2 of the rows above, restated:

{"smiles": "CCCCCCCC/C=C\\CCCCCCCCOCCOP(=O)(O)CO[C@H](CO)Cn1ccc(N)nc1=O", "cell line": "HFF", "strain or isolate": "AD169", "result": "0.001 µM"}
{"smiles": "OC[C@H]1O[C@@H](n2c(Cl)nc3cc(Cl)c(Cl)cc32)[C@H](O)[C@@H]1O", "cell line": "HFF", "strain or isolate": "TOWNE", "result": "2.8 µM"}